The record followed here is patent US20150073021A1 (priority 2013, published 2015).

Chains of the proteins cited; added tags and fusions are not shown. Residues count along the entry.
UniProt P15917, 34-809 limits assumed: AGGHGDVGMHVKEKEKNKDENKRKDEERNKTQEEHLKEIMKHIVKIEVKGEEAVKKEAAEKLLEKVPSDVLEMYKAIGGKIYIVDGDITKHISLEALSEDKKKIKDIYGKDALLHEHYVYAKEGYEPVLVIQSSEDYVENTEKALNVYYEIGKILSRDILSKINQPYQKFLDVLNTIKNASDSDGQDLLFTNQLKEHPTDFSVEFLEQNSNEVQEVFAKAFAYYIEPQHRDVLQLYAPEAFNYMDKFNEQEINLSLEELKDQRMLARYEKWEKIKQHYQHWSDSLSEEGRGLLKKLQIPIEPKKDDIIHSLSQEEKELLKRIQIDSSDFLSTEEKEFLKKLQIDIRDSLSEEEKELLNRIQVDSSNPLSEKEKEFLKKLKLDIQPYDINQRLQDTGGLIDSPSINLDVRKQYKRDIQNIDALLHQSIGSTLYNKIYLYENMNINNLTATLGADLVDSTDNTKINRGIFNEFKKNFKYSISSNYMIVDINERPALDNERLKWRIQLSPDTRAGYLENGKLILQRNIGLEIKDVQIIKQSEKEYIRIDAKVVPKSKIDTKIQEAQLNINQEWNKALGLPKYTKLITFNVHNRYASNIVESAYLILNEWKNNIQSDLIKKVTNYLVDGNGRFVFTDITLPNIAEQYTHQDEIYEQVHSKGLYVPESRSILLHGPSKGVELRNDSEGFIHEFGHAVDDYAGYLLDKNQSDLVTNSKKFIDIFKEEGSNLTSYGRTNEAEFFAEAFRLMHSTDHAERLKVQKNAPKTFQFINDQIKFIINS

The experiment deals with Recombinant lethal factor (native sequence) (Bacillus anthracis, UniProt P15917). Nature of the experiment: Lethal factor peptidolytic activity assay (FRET MAPKKide cleavage).

As for `O=C(/C=C/c1ccc(O)cc1)C(C(=O)/C=C/c1ccc(O)cc1)C(=O)Nc1ccccc1` [CMC2.24], the IC50 (100 nM LF and 3 μM substrate, depends on substrate concentration) worked out at 33.1 µM. Also, the “inhibition of lethal factor peptidolytic activity (in words)” value (100 nM lethal factor, 3 μM substrate, 20 μM inhibitors) is on record as “strongest inhibitor of lethal factor among the CMCs tested”. Moreover, the “inhibition of cleavage of substrate by lethal factor” value (20 μM inhibitor, 3 μM substrate, 100 nM lethal factor) is 26-28%.

The IC50 is the point on the concentration scale where inhibition reaches its midpoint.
